Taken from: PubChem BioAssay AID1259414 (Drosophila RNAi Screening Center, 2018)
In all, the deposit lists about 24,000 reagents; this is an unselected part of those that have a named target and a result. In the full data, about 1,210 (5%) are marked active. 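Inactive calls also include excluded dsRNAs with several or no targets, genes unexpressed in JW18, and well A1, regardless of score.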 The numbers tell different reagents against one gene apart. No sequences are given here.

- Aim: 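Host factors increasing or decreasing Wolbachia levels in cultured fly cells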 (primary screen)
- System: Drosophila JW18 cells infected with Wolbachia
- Knock-down reagent: long dsRNA against Drosophila genes, 0.25 µg dsRNA per well of a 384-well plate
- Timing: 5 days
- Treatment: cells persistently infected with Wolbachia before knock-down; no added drug
- Measurement: 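Automated imaging of bacterial rRNA staining divided by host cell count, reported as plate-normalised robust z-score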
- Direction: Wolbachia per cell robust z: higher = more Wolbachia per host cell than the plate typical
- Call rule: 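Active if absolute robust z reaches 1.5 in two or more of three replicates, leaving out multi- or no-target dsRNAs, genes unexpressed in JW18 and A1 wells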

Pli gave Wolbachia per cell robust z, rep 1 = 0.863; Wolbachia per cell robust z, rep 2 = -0.018; Wolbachia per cell robust z, rep 3 = 0.401; inactive.
CG6481 scored Wolbachia per cell robust z, rep 1 = -4.23; Wolbachia per cell robust z, rep 2 = -1.52; Wolbachia per cell robust z, rep 3 = -4.16; active.
CG13177 #1 gave Wolbachia per cell robust z, rep 1 = -0.306; Wolbachia per cell robust z, rep 2 = 0.102; Wolbachia per cell robust z, rep 3 = 0.799; inactive.
CG13177 #2 gave Wolbachia per cell robust z, rep 1 = -3.56; Wolbachia per cell robust z, rep 2 = -0.485; Wolbachia per cell robust z, rep 3 = -2.51; active.
For CG6495 #1, the entry reads Wolbachia per cell robust z, rep 1 = 0.328; Wolbachia per cell robust z, rep 2 = 0.567; Wolbachia per cell robust z, rep 3 = 0.45; inactive.
For CG6495 #2, the values are Wolbachia per cell robust z, rep 1 = 0.479; Wolbachia per cell robust z, rep 2 = 0.381; Wolbachia per cell robust z, rep 3 = -0.613; inactive.
CG13405 #1 scored Wolbachia per cell robust z, rep 1 = 0.127; Wolbachia per cell robust z, rep 2 = 0.36; Wolbachia per cell robust z, rep 3 = 0.0517; inactive.
For CG13405 #2, the entry reads Wolbachia per cell robust z, rep 1 = -6.68; Wolbachia per cell robust z, rep 2 = -2.04; Wolbachia per cell robust z, rep 3 = -3.6; active.
After knock-down of Ufl1 the results were Wolbachia per cell robust z, rep 1 = 0.0611; Wolbachia per cell robust z, rep 2 = 0.342; Wolbachia per cell robust z, rep 3 = 0.0788; inactive.
CG1773 showed Wolbachia per cell robust z, rep 1 = -1.82; Wolbachia per cell robust z, rep 2 = -0.119; Wolbachia per cell robust z, rep 3 = -8.72; inactive.
For bae (retired record) #1, the entry reads Wolbachia per cell robust z, rep 1 = 0.303; Wolbachia per cell robust z, rep 2 = 0.413; Wolbachia per cell robust z, rep 3 = 0.371; inactive.
bae (retired record) #2 scored Wolbachia per cell robust z, rep 1 = 1.22; Wolbachia per cell robust z, rep 2 = 0.449; Wolbachia per cell robust z, rep 3 = -1.86; inactive.
Silencing of CG42342 #1 gave: Wolbachia per cell robust z, rep 1 = 0.728; Wolbachia per cell robust z, rep 2 = 1.25; Wolbachia per cell robust z, rep 3 = -0.219; inactive.
Knock-down of CG42342 #2 resulted in: Wolbachia per cell robust z, rep 1 = -4.64; Wolbachia per cell robust z, rep 2 = 0.0585; Wolbachia per cell robust z, rep 3 = -5.03; active.
With knock-down of CG42342 #3, the record shows Wolbachia per cell robust z, rep 1 = -5.67; Wolbachia per cell robust z, rep 2 = 0.953; Wolbachia per cell robust z, rep 3 = -0.229; inactive.
With knock-down of CG42342 #4 the results were Wolbachia per cell robust z, rep 1 = -0.587; Wolbachia per cell robust z, rep 2 = 0.491; Wolbachia per cell robust z, rep 3 = 0.124; inactive.
Knock-down of CG42342 #5 gave: Wolbachia per cell robust z, rep 1 = -1.44; Wolbachia per cell robust z, rep 2 = -1.82; Wolbachia per cell robust z, rep 3 = 0.685; inactive.
CG42342 #6 scored Wolbachia per cell robust z, rep 1 = 0.847; Wolbachia per cell robust z, rep 2 = 0.297; Wolbachia per cell robust z, rep 3 = -0.377; inactive.
After knock-down of CG42342 #7 the results were Wolbachia per cell robust z, rep 1 = -0.864; Wolbachia per cell robust z, rep 2 = -0.375; Wolbachia per cell robust z, rep 3 = -4.51; inactive.
For CG42342 #8, the entry reads Wolbachia per cell robust z, rep 1 = 1.43; Wolbachia per cell robust z, rep 2 = -0.648; Wolbachia per cell robust z, rep 3 = 1.03; inactive.
With knock-down of CG42342 #9 the results were Wolbachia per cell robust z, rep 1 = -1.24; Wolbachia per cell robust z, rep 2 = 0.554; Wolbachia per cell robust z, rep 3 = -0.362; inactive.
Depletion of CG42342 #10 came out at: Wolbachia per cell robust z, rep 1 = 0.11; Wolbachia per cell robust z, rep 2 = 0.854; Wolbachia per cell robust z, rep 3 = -0.306; inactive.
Hsp60C #1 gave Wolbachia per cell robust z, rep 1 = 0.608; Wolbachia per cell robust z, rep 2 = 2.28; Wolbachia per cell robust z, rep 3 = -1.59; inactive.
With knock-down of Hsp60C #2, the screen gave Wolbachia per cell robust z, rep 1 = -1.84; Wolbachia per cell robust z, rep 2 = -0.611; Wolbachia per cell robust z, rep 3 = -0.325; inactive.
For path, the entry reads Wolbachia per cell robust z, rep 1 = -0.032; Wolbachia per cell robust z, rep 2 = 0.16; Wolbachia per cell robust z, rep 3 = -1.17; inactive.
Silencing of spirit #1 gave: Wolbachia per cell robust z, rep 1 = 0.21; Wolbachia per cell robust z, rep 2 = 0.28; Wolbachia per cell robust z, rep 3 = -5.1; inactive.
After knock-down of spirit #2, the screen gave Wolbachia per cell robust z, rep 1 = 0.0826; Wolbachia per cell robust z, rep 2 = -1.02; Wolbachia per cell robust z, rep 3 = 0.549; inactive.
After knock-down of AsnRS, the screen gave Wolbachia per cell robust z, rep 1 = 0.195; Wolbachia per cell robust z, rep 2 = -0.644; Wolbachia per cell robust z, rep 3 = 0.429; inactive.
CG12971 #1 scored Wolbachia per cell robust z, rep 1 = -0.24; Wolbachia per cell robust z, rep 2 = -0.0513; Wolbachia per cell robust z, rep 3 = 1.01; inactive.
Depletion of CG12971 #2 came out at: Wolbachia per cell robust z, rep 1 = -0.65; Wolbachia per cell robust z, rep 2 = 0.706; Wolbachia per cell robust z, rep 3 = 1.09; inactive.

Just “Wolbachia per cell robust z, rep 1”, for 4 of the entries above:
Hsp60C #1: 0.608
Hsp60C #2: -1.84
path: -0.032
spirit #1: 0.21
